From PMC6669600 (Viruses, 2019)

Test system: HIV-1NL4-3 pseudovirus
Format: cell-based
Settings: HIV-1NL4-3(D36G) pseudovirus entry, TZM-bl cells; triplicate, repeated three times, mean ± SD; SD; read-out: Inhibition (IC50, nM) NL4-3 entry

Row | Compound | IC50
1 | CC[C@H](C)[C@H](NC(=O)[C@H](CC(C)C)NC(=O)[C@H](CCC(=O)O)NC(=O)[C@H](CCC(=O)O)NC(=O)[C@@H](NC(=O)[C@H](CCCCN)NC(=O)[C@H](CCCCN)NC(=O)[C@@H](NC(=O)[C@H](Cc1ccc(O)cc1)NC(=O)[C@H](CCC(=O)O)NC(=O)[C@H](CCC(=O)O)NC(=O)[C@@H](NC(=O)[C@H](CCCCN)NC(=O)[C@H](CCCCN)NC(=O)[C@H](CC(=O)O)NC(=O)[C@H](Cc1c[nH]c2ccccc12)NC(=O)[C@H](CCC(=O)O)NC(=O)[C@H](CCC(=O)O)NC(=O)[C@H](Cc1c[nH]c2ccccc12)NC(=O)[C@@H](NC(=O)[C@H](CCSC)NC(C)=O)[C@@H](C)O)[C@@H](C)CC)[C@@H](C)O)[C@@H](C)CC)C(=O)N[C@@H](CCCCN)C(=O)N[C@@H](CCCCN)C(=O)N[C@@H](CO)C(=O)N[C@@H](CCC(=O)O)C(=O)N[C@@H](CCC(=O)O)C(=O)N[C@@H](CCC(N)=O)C(=O)N[C@@H](CCC(N)=O)C(=O)N[C@@H](CCCCN)C(=O)N[C@@H](CCCCN)C(=O)N[C@@H](CC(N)=O)C(=O)N[C@@H](CCC(=O)O)C(=O)N[C@@H](CCCCN)C(N)=O [MT-SC31EK] | 1.3 ± 0.1 nM
2 | CC[C@H](C)[C@H](NC(=O)[C@H](CC(C)C)NC(=O)[C@H](CCC(=O)O)NC(=O)[C@H](CCC(=O)O)NC(=O)[C@@H](NC(=O)[C@H](CCCCN)NC(=O)[C@H](CCCCN)NC(=O)[C@@H](NC(=O)[C@H](Cc1ccc(O)cc1)NC(=O)[C@H](CCC(=O)O)NC(=O)[C@H](CCC(=O)O)NC(=O)[C@@H](NC(=O)[C@H](CCCCN)NC(=O)[C@H](CCCCN)NC(=O)[C@H](CC(=O)O)NC(=O)[C@H](Cc1c[nH]c2ccccc12)NC(=O)[C@H](CCC(=O)O)NC(=O)[C@H](CCC(=O)O)NC(=O)[C@H](Cc1c[nH]c2ccccc12)NC(=O)[C@@H](NC(=O)[C@H](CCSC)NC(C)=O)[C@@H](C)O)[C@@H](C)CC)[C@@H](C)O)[C@@H](C)CC)C(=O)N[C@@H](CCCCN)C(N)=O [MT-SC20EK] | 3.7 ± 0.5 nM
3 | CC[C@H](C)[C@H](NC(=O)[C@H](CC(C)C)NC(=O)[C@H](CCC(=O)O)NC(=O)[C@H](CCC(=O)O)NC(=O)[C@@H](NC(=O)[C@H](CCCCN)NC(=O)[C@H](CCCCN)NC(=O)[C@@H](NC(=O)[C@H](Cc1ccc(O)cc1)NC(=O)[C@H](CCC(=O)O)NC(=O)[C@H](CCC(=O)O)NC(=O)[C@@H](NC(=O)[C@H](CCCCN)NC(=O)[C@H](CCCCN)NC(=O)[C@H](CC(=O)O)NC(=O)[C@H](Cc1c[nH]c2ccccc12)NC(=O)[C@H](CCC(=O)O)NC(=O)[C@H](CCC(=O)O)NC(=O)[C@H](Cc1c[nH]c2ccccc12)NC(C)=O)[C@@H](C)CC)[C@@H](C)O)[C@@H](C)CC)C(N)=O [SC19EK] | 70.7 ± 9 nM
4 | CC[C@H](C)[C@H](NC(=O)[C@H](CC(C)C)NC(=O)[C@H](CCC(=O)O)NC(=O)[C@H](CCC(=O)O)NC(=O)[C@@H](NC(=O)[C@H](CCCCN)NC(=O)[C@H](CCCCN)NC(=O)[C@@H](NC(=O)[C@H](Cc1ccc(O)cc1)NC(=O)[C@H](CCC(=O)O)NC(=O)[C@H](CCC(=O)O)NC(=O)[C@@H](NC(=O)[C@H](CCCCN)NC(=O)[C@H](CCCCN)NC(=O)[C@H](CC(=O)O)NC(=O)[C@H](Cc1c[nH]c2ccccc12)NC(=O)[C@H](CCC(=O)O)NC(=O)[C@H](CCC(=O)O)NC(=O)[C@H](Cc1c[nH]c2ccccc12)NC(=O)[C@@H](NC(=O)[C@H](CCSC)NC(C)=O)[C@@H](C)O)[C@@H](C)CC)[C@@H](C)O)[C@@H](C)CC)C(=O)N[C@@H](CCCCN)C(=O)N[C@@H](CCCCN)C(N)=O [MT-SC21EK] | 3.8 ± 0.4 nM
5 | CC[C@H](C)[C@H](NC(=O)[C@H](CC(C)C)NC(=O)[C@H](CCC(=O)O)NC(=O)[C@H](CCC(=O)O)NC(=O)[C@@H](NC(=O)[C@H](CCCCN)NC(=O)[C@H](CCCCN)NC(=O)[C@@H](NC(=O)[C@H](Cc1ccc(O)cc1)NC(=O)[C@H](CCC(=O)O)NC(=O)[C@H](CCC(=O)O)NC(=O)[C@@H](NC(=O)[C@H](CCCCN)NC(=O)[C@H](CCCCN)NC(=O)[C@H](CC(=O)O)NC(=O)[C@H](Cc1c[nH]c2ccccc12)NC(=O)[C@H](CCC(=O)O)NC(=O)[C@H](CCC(=O)O)NC(=O)[C@H](Cc1c[nH]c2ccccc12)NC(C)=O)[C@@H](C)CC)[C@@H](C)O)[C@@H](C)CC)C(=O)N[C@@H](CCCCN)C(=O)N[C@@H](CCCCN)C(=O)N[C@@H](CO)C(=O)N[C@@H](CCC(=O)O)C(=O)N[C@@H](CCC(=O)O)C(=O)N[C@@H](CCC(N)=O)C(=O)N[C@@H](CCC(N)=O)C(=O)N[C@@H](CCCCN)C(=O)N[C@@H](CCCCN)C(=O)N[C@@H](CC(N)=O)C(=O)N[C@@H](CCC(=O)O)C(=O)N[C@@H](CCCCN)C(=O)N[C@@H](CCC(=O)O)C(=O)N[C@@H](CC(C)C)C(=O)N[C@@H](CCCCN)C(N)=O [SC34EK, reference compound] | 0.9 ± 0.1 nM
6 | CC[C@H](C)[C@H](NC(=O)[C@H](CC(C)C)NC(=O)[C@H](CCC(=O)O)NC(=O)[C@H](CCC(=O)O)NC(=O)[C@@H](NC(=O)[C@H](CCCCN)NC(=O)[C@H](CCCCN)NC(=O)[C@@H](NC(=O)[C@H](Cc1ccc(O)cc1)NC(=O)[C@H](CCC(=O)O)NC(=O)[C@H](CCC(=O)O)NC(=O)[C@@H](NC(=O)[C@H](CCCCN)NC(=O)[C@H](CCCCN)NC(=O)[C@H](CC(=O)O)NC(=O)[C@H](Cc1c[nH]c2ccccc12)NC(=O)[C@H](CCC(=O)O)NC(=O)[C@H](CCC(=O)O)NC(=O)[C@H](Cc1c[nH]c2ccccc12)NC(C)=O)[C@@H](C)CC)[C@@H](C)O)[C@@H](C)CC)C(=O)N[C@@H](CCCCN)C(=O)N[C@@H](CCCCN)C(=O)N[C@@H](CO)C(=O)N[C@@H](CCC(=O)O)C(=O)N[C@@H](CCC(=O)O)C(N)=O [SC24EK] | 108 ± 8 nM
7 | CC[C@H](C)[C@H](NC(=O)[C@H](CCC(N)=O)NC(=O)[C@H](CCC(N)=O)NC(=O)[C@H](CC(N)=O)NC(=O)[C@H](CCC(N)=O)NC(=O)[C@H](CO)NC(=O)[C@H](CCCCN)NC(=O)[C@H](CCCCN)NC(=O)[C@@H](NC(=O)[C@H](CC(C)C)NC(=O)[C@H](CCC(=O)O)NC(=O)[C@H](CCC(=O)O)NC(=O)[C@@H](NC(=O)[C@H](CCCCN)NC(=O)[C@H](CCCCN)NC(=O)[C@@H](NC(=O)[C@H](Cc1ccc(O)cc1)NC(=O)[C@H](CCC(=O)O)NC(=O)[C@H](CCC(=O)O)NC(=O)[C@@H](NC(=O)[C@H](CCCCN)NC(=O)[C@H](CCCNC(=N)N)NC(=O)[C@H](CC(=O)O)NC(=O)[C@H](Cc1c[nH]c2ccccc12)NC(=O)[C@H](CCC(=O)O)NC(=O)[C@H](CCC(=O)O)NC(=O)[C@H](Cc1c[nH]c2ccccc12)NC(C)=O)[C@@H](C)CC)[C@@H](C)O)[C@@H](C)CC)[C@@H](C)CC)C(=O)N[C@@H](CC(=O)O)C(=O)N[C@@H](CC(C)C)C(N)=O [WQ-IDL, reference compound] | 1.5 ± 0.2 nM
8 | CC[C@H](C)[C@H](NC(=O)[C@H](CC(C)C)NC(=O)[C@H](CCC(=O)O)NC(=O)[C@H](CCC(=O)O)NC(=O)[C@@H](NC(=O)[C@H](CCCCN)NC(=O)[C@H](CCCCN)NC(=O)[C@@H](NC(=O)[C@H](Cc1ccc(O)cc1)NC(=O)[C@H](CCC(=O)O)NC(=O)[C@H](CCC(=O)O)NC(=O)[C@@H](NC(=O)[C@H](CCCCN)NC(=O)[C@H](CCCNC(=N)N)NC(=O)[C@H](CC(=O)O)NC(=O)[C@H](Cc1c[nH]c2ccccc12)NC(=O)[C@H](CCC(=O)O)NC(=O)[C@H](CCC(=O)O)NC(=O)[C@H](Cc1c[nH]c2ccccc12)NC(C)=O)[C@@H](C)CC)[C@@H](C)O)[C@@H](C)CC)C(=O)N[C@@H](CCCCN)C(=O)N[C@@H](CCCCN)C(=O)N[C@@H](CO)C(=O)N[C@@H](CCC(N)=O)C(=O)N[C@@H](CC(N)=O)C(=O)N[C@@H](CCC(N)=O)C(=O)N[C@@H](CCC(N)=O)C(=O)N[C@@H](CCC(=O)O)C(=O)N[C@@H](CCCCN)C(=O)N[C@@H](CC(N)=O)C(N)=O [WQ-EKN] | 1.4 ± 0.2 nM
